Consider two compounds from US7504203B2 (priority 2002, dated 2009).

For this test, the target named is GST-fused SCDH enzyme expressed from the resistant strain cDNA (Pyricularia oryzae, UniProt P56221, V75M). The conditions noted are these: FIG. 9.

Take `CC(NC(=O)C(C#N)C(C)(C)C)c1ccc(Cl)cc1Cl` (centres unmarked): the “resistance of the GST-fused SCDH enzyme to the inhibitor” value is given as “show resistance”. With “1-(2,4-dichlorophenyl)oxy-N-(1-cyano-1,2-dimethyl)propylethanecarboxamide” the entry was “show resistance”.
